# PubChem BioAssay AID1259414 | Drosophila RNAi Screening Center | 2018
# Test: 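Host factors increasing or decreasing Wolbachia levels in cultured fly cells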 (primary screen)
# Cells: Drosophila JW18 cells infected with Wolbachia
# Reagents: long dsRNA against Drosophila genes, 0.25 µg dsRNA per well of a 384-well plate
# Duration: 5 days
# Treatment: cells persistently infected with Wolbachia before knock-down; no added drug
# Measured: 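Imaged fluorescence in situ signal for Wolbachia 23S rRNA per DAPI-counted host cell, given as a robust z-score within each plate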
# Reading the numbers: Wolbachia per cell robust z: higher = more Wolbachia per host cell than the plate typical
# Active means: 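Hit when robust z is 1.5 or more, or -1.5 or less, in at least two of three replicates; excludes dsRNAs with several or no targets, genes not expressed in JW18 and well A1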
# In all, the deposit lists about 24,000 reagents; this is an unselected part of those that have a named target and a result. In the full data, about 1,210 (5%) are marked active. 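Inactive calls also include excluded dsRNAs with several or no targets, genes unexpressed in JW18, and well A1, regardless of score.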 Reagents against one gene are numbered here. Names joined by + are all predicted targets of the reagent. Reagent sequences are not shown.
target gene,reagent no.,"Wolbachia per cell robust z, rep 1","Wolbachia per cell robust z, rep 2","Wolbachia per cell robust z, rep 3",Outcome
PI31,1,0.356,0.119,0.805,inactive
RpL9,1,2.7,3.77,4.25,active
CG12231,1,0.282,0.726,1.15,inactive
CG11470,1,0.17,-0.388,0.956,inactive
CG12576,1,-0.176,0.495,-0.121,inactive
CG12576,2,-0.915,0.0912,-0.394,inactive
CG43084,1,0.238,-0.296,-0.658,inactive
Ant2,1,0.511,0.59,1.4,inactive
Ant2,2,-2.92,-1.19,-0.355,inactive
MFS16,1,-1.04,-0.248,-0.555,inactive
MFS16,2,-0.303,-0.599,-0.752,inactive
CG9921,1,0.696,-1.43,-0.171,inactive
lft,1,0.0147,-6.1,-0.946,inactive
CG5516,1,-0.225,-2.07,-1.45,inactive
CG5516,2,0.844,-1.6,0.643,inactive
CG5516,3,-8.34,-0.501,0.314,inactive
Ilp1,1,-3.8,-1.4,-4.52,inactive
Gr5a,1,0.321,0.731,0.368,inactive
Gr5a,2,0.83,0.212,0.99,inactive
CG5080,1,0.429,0.0653,-1.54,inactive
CG15144,1,-2.65,-3.54,1.47,inactive
CG15144,2,0.154,-0.637,-0.202,inactive
ksr,1,-3.04,0.658,1.19,inactive
ksr,2,0.697,0.163,0.0619,inactive
mRpS18C,1,-0.206,-3.87,-0.756,inactive
mRpS18C,2,-2.31,-0.0633,0.949,inactive
CG43397 + CG12902,1,0.518,-0.673,-2.04,inactive
pita,1,0.431,0.327,-0.0265,inactive
pita,2,1.08,-3.33,-0.364,inactive
nemy,1,0.394,1.58,-11.9,inactive
nemy,2,-6.62,-0.149,-3.55,active
nemy,3,0.915,1.14,0.113,inactive
Ulp1,1,-0.456,-0.331,0.533,inactive
Hsp83,1,-2.7,0.252,0.228,inactive
Hsp83,2,-0.0015,1.44,1.44,inactive
CG2931,1,-0.755,-1.56,-1.3,inactive
Art1,1,-1.3,-0.74,-0.521,inactive
CG30431,1,-5.57,0.354,0.258,inactive
CG30431,2,-0.536,-0.301,-0.437,inactive
Tyler + Shawn,1,0.327,0.15,-0.928,inactive
Or85f,1,-5.81,-1.03,-0.656,inactive
faf,1,-4.2,1.03,-0.527,inactive
Obp44a,1,-1.17,-1.95,-0.227,inactive
Obp44a,2,0.273,-0.678,-0.627,inactive
Cks30A,1,-9.03,0.821,-0.622,inactive
CG1602,1,0.0704,0.288,-0.0432,inactive
CG31522,1,-1.53,-0.961,0.217,inactive
CG31522,2,-5.58,-1.11,-8.14,active
Ugt37A1,1,0.193,0.145,-0.556,inactive
CG3927,1,0.389,-5.62,-4.43,inactive
CG3927,2,0.518,-0.581,-1.31,inactive
mtDNA-helicase,1,-0.677,-5.01,-0.0534,inactive
CG15418 + Ugt36A1,1,1.03,1.13,-0.995,inactive
CG15418 + Ugt36A1,2,0.255,0.596,0.318,inactive
Ppt2,1,-8.67,-3.2,0.951,active
Ppt2,2,0.535,-1.9,-2.27,active
CG2816,1,-4.57,0.354,-0.175,inactive
CG2816,2,0.159,-0.00773,0.191,inactive
Ppt1,1,-0.653,-2.99,0.0176,inactive
CG42264,1,-0.235,-0.689,0.725,inactive
CG42264,2,-0.737,0.0455,0.792,inactive
CG42264,3,0.855,0.125,0.0893,inactive
Aladin,1,1.34,0.783,0.578,inactive
Aladin,2,-2.63,-1.64,-1.28,active
CG30060,1,0.387,-0.409,0.566,inactive
SAK,1,-0.969,-4.99,-0.563,inactive
SAK,2,1.41,-0.089,0.712,inactive
SAK,3,0.451,0.241,0.686,inactive

Part of the list above in another layout.
| target gene | reagent no. | Wolbachia per cell robust z, rep 1 | Wolbachia per cell robust z, rep 2 | Wolbachia per cell robust z, rep 3 | Outcome |
| --- | --- | --- | --- | --- | --- |
| Ppt1 | 1 | -0.653 | -2.99 | 0.0176 | inactive |
| CG42264 | 1 | -0.235 | -0.689 | 0.725 | inactive |
| CG42264 | 2 | -0.737 | 0.0455 | 0.792 | inactive |
| CG42264 | 3 | 0.855 | 0.125 | 0.0893 | inactive |
| Aladin | 1 | 1.34 | 0.783 | 0.578 | inactive |
| Aladin | 2 | -2.63 | -1.64 | -1.28 | active |
| CG30060 | 1 | 0.387 | -0.409 | 0.566 | inactive |
| SAK | 1 | -0.969 | -4.99 | -0.563 | inactive |
| SAK | 2 | 1.41 | -0.089 | 0.712 | inactive |
| SAK | 3 | 0.451 | 0.241 | 0.686 | inactive |
